Taken from: PubChem BioAssay AID1259414 (Drosophila RNAi Screening Center, 2018)
In all, the deposit lists about 24,000 reagents; below is a random part of those with a known target gene and a result. In the full data, about 1,210 (5%) were called active. 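Inactive calls also include excluded dsRNAs with several or no targets, genes unexpressed in JW18, and well A1, regardless of score.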 Names joined by + are all predicted targets of the reagent.

- Purpose: 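Host factors increasing or decreasing Wolbachia levels in cultured fly cells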 (primary screen)
- System: Drosophila JW18 cells infected with Wolbachia
- Knock-down reagent: long dsRNA against Drosophila genes, 0.25 µg dsRNA per well of a 384-well plate
- Duration: 5 days
- Conditions: cells persistently infected with Wolbachia before knock-down; no added drug
- Read-out: 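Imaged fluorescence in situ signal for Wolbachia 23S rRNA per DAPI-counted host cell, given as a robust z-score within each plate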
- Direction: Wolbachia per cell robust z: higher = more Wolbachia per host cell than the plate typical
- Active means: 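Active if absolute robust z reaches 1.5 in two or more of three replicates, leaving out multi- or no-target dsRNAs, genes unexpressed in JW18 and A1 wells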

predicted target	DRSC id	Wolbachia per cell robust z, rep 1	Wolbachia per cell robust z, rep 2	Wolbachia per cell robust z, rep 3	Call
wbl (GeneID 37206)	DRSC07718	0.129	-0.835	0.0733	inactive
wbl (GeneID 37206)	DRSC26561	0.845	-1.85	-0.223	inactive
Sam-S (GeneID 48552)	DRSC00758	1.45	0.451	0.729	inactive
Tep4 (GeneID 35248)	DRSC03453	-9.77	-0.406	0.172	inactive
CG9514 (GeneID 32418)	DRSC20190	-0.547	0.775	0.53	inactive
CG9514 (GeneID 32418)	DRSC20191	-2.28	-0.674	-1.63	active
CG9514 (GeneID 32418)	DRSC30059	0.615	-0.665	1.62	inactive
Gr77a (GeneID 117476)	DRSC11446	-1.54	-10.4	-1.47	inactive
Gr77a (GeneID 117476)	DRSC26808	0.892	0.969	-0.587	inactive
robo3 (GeneID 33314)	DRSC00374	1.31	0.996	0.27	inactive
robo3 (GeneID 33314)	DRSC00684	0.158	0.487	0.186	inactive
laf (GeneID 40606)	DRSC12246	-0.612	2.55	-9.25	inactive
E(spl)m4-BFM (GeneID 43157)	DRSC16992	0.371	-1.18	1.33	inactive
E(spl)m4-BFM (GeneID 43157)	DRSC27642	-1.24	-1.79	-1.09	inactive
tsr (GeneID 37841)	DRSC04718	0.702	2.37	1.85	active
tsr (GeneID 37841)	DRSC40832	-0.991	0.0866	0.0365	inactive
CG18788 (GeneID 59164)	DRSC02697	0.817	0.493	0.231	inactive
Liprin-beta (GeneID 39524)	DRSC09795	0.661	0.898	1.12	inactive
Liprin-beta (GeneID 39524)	DRSC23339	-4.74	-0.462	-1.07	inactive
Liprin-beta (GeneID 39524)	DRSC28695	0.0729	0.32	-0.155	inactive
CG34107 (GeneID 4379852)	DRSC14554	-0.142	0.189	-4.85	inactive
CadN (GeneID 35070)	DRSC03286	-0.114	0.897	-0.127	inactive
CadN (GeneID 35070)	DRSC27368	-0.172	0.942	0.862	inactive
Nup35 (GeneID 32851)	DRSC19999	-5.34	0.0657	1.56	inactive
CG1722 (GeneID 33101)	DRSC20547	0.677	0.334	0.34	inactive
Syb (GeneID 36080)	DRSC07559	-2.21	1.5	4.04	active
Syb (GeneID 36080)	DRSC25904	-0.817	3.25	0.0731	inactive
CG30416 (GeneID 246603)	DRSC04565	-0.00675	-4.24	-0.573	inactive
CG8774 (GeneID 41635)	DRSC16445	0.411	-0.399	-0.182	inactive
Usp14 (GeneID 34387)	DRSC02853	-6.73	0.0142	0.584	inactive
Usp14 (GeneID 34387)	DRSC26748	0.535	-4	-0.0951	inactive
tst + CG10375	DRSC14237	-9.8	1.49	-1.36	inactive
bisc (GeneID 37443)	DRSC04083	0.33	-4.05	0.243	inactive
bisc (GeneID 37443)	DRSC28459	0.338	0.461	0.89	inactive
PGRP-LC (GeneID 39063)	DRSC08980	0.772	1.73	0.675	inactive
PGRP-LC (GeneID 39063)	DRSC10416	-0.527	0.183	0.65	inactive
PGRP-LC (GeneID 39063)	DRSC10417	-4.41	0.701	1.04	inactive
PGRP-LC (GeneID 39063)	DRSC28556	1.16	1.74	1.67	inactive
CG33060 (GeneID 39807)	DRSC09939	-1.56	0.289	-0.75	inactive
yellow-f (GeneID 41595)	DRSC15348	0.8	0.436	0.846	inactive
yellow-f (GeneID 41595)	DRSC27151	0.275	-4.52	0.511	inactive
TpnC25D (GeneID 33752)	DRSC02965	0.247	0.853	0.207	inactive
TpnC25D (GeneID 33752)	DRSC24524	0.594	0.605	-1.61	inactive
CG5021 (GeneID 39025)	DRSC10469	-1.68	-1.4	-0.271	inactive
CG5550 (GeneID 36883)	DRSC06943	-1.29	-0.824	0.701	inactive
CG5550 (GeneID 36883)	DRSC29735	-2.5	0.265	-10.8	active

Entries listed above marked active (4):
predicted target	DRSC id	Wolbachia per cell robust z, rep 1	Wolbachia per cell robust z, rep 2	Wolbachia per cell robust z, rep 3	Call
CG9514 (GeneID 32418)	DRSC20191	-2.28	-0.674	-1.63	active
tsr (GeneID 37841)	DRSC04718	0.702	2.37	1.85	active
Syb (GeneID 36080)	DRSC07559	-2.21	1.5	4.04	active
CG5550 (GeneID 36883)	DRSC29735	-2.5	0.265	-10.8	active
